Anti-infective test results gathered from many reports (values: NIAID ChemDB through PubChem).

Shared fields: tests in culture; agent: Parainfluenza virus; cell line: VERO; endpoint: EC50

An empty or dashed field is not shown.

structure,strain,read by,value
CC1(C)[C@@H](CO)CC[C@@]1(C)Cn1nnc2c(=O)[nH]cnc21,TYPE 3,cytopathic effect,>400 µg/mL
Nc1ccn([C@@H]2O[C@H](CO)[C@@H](O)[C@@H]2O)c(=O)n1,C243 (TYPE 3),cytopathic effect,>500 µM
CC1(C)[C@@H](CO)CC[C@@]1(C)Cn1cc(Br)c(=O)[nH]c1=O,TYPE 3,cytopathic effect,>400 µg/mL
CSc1ncnc2c1cnn2Cc1cn(CCCCO)nn1,TYPE 3,,240 µg/mL
NC1=CC(N)=NS(=O)(=O)N1COCCO,TYPE 3,,>400 µg/mL
C=C(N=CC)c1nc(-c2ccc(C)cc2)n(C2O[C@H](CO)[C@@H](O)[C@H](O)[C@H]2O)n1,TYPE 3,cytopathic effect,>100 µg/mL
CC(=O)OCCOCN1C(=O)C=CN(COCCO)S1(=O)=O,TYPE 3,,>400 µg/mL
O=c1[nH]n2c(-c3cn(-c4ccccc4)nc3-c3ccccc3)nnc2sc1=O,TYPE 3,cytopathic effect,>80 µg/mL
Cc1cn(C(CF)CCCO)c(=O)[nH]c1=O,TYPE 3,cytopathic effect,>400 µg/mL
C=CC1=C[C@@H](n2cnc3c(N)ncnc32)[C@H](O)[C@@H]1O,TYPE 3,cytopathic effect,40 µg/mL
OCCCCn1cc(Cn2ncc3c(SCc4ccccc4)ncnc32)nn1,TYPE 3,,>400 µg/mL
Nc1ncnc2c1ncn2[C@H]1C[C@H](O)[C@@H](/C=N/O)O1,TYPE 3,cytopathic effect,>100 µg/mL
CC1(C)[C@@H](CCO)C[C@H]1n1cnc2c(=O)[nH]c(N)nc21,TYPE 3,cytopathic effect,>400 µg/mL
C=C(N=CC)c1nc(-c2cccc(OC)c2)n(C2O[C@H](CO)[C@@H](O)[C@H](O)[C@H]2O)n1,TYPE 3,cytopathic effect,>200 µg/mL
CC1(C)[C@@H](CO)CC[C@@]1(C)Cn1cnc2c(N)ncnc21,TYPE 3,cytopathic effect,>400 µg/mL
Cc1cn([C@H]2C[C@H]([N+](=O)[O-])[C@@H](CO)O2)c(=O)[nH]c1=O,,cytopathic effect,>200 µg/mL
CC1(C)[C@@H](CCO)C[C@H]1n1nnc2c(=O)[nH]cnc21,TYPE 3,cytopathic effect,100 µg/mL
Nc1ncnc2c1ncn2[C@@H]1O[C@H](C=NOCc2ccccc2)[C@@H](O)[C@H]1O,TYPE 3,cytopathic effect,>100 µg/mL
Nc1nccc2c1ncn2[C@@H]1C[C@H](CO)[C@@H](O)[C@H]1O,TYPE 3,cytopathic effect,1 µg/mL
NC1=Nn2c(nnc2-c2cn(-c3ccccc3)nc2-c2ccccc2)SC1,TYPE 3,cytopathic effect,>16 µg/mL
CC(=O)OCCOCN1C(=N)/C(=C(\C)O)C(N)=NS1(=O)=O,TYPE 3,,>400 µg/mL
S=c1[nH]n2c(-c3cn(-c4ccccc4)nc3-c3ccccc3)nnc2s1,TYPE 3,cytopathic effect,>80 µg/mL
N#CC1=CN(COCCO)S(=O)(=O)N=C1N,TYPE 3,,>400 µg/mL
Nc1ncnc2c1ncn2[C@@H]1O[C@H](C(O)O)[C@@H](O)[C@@H]1O,TYPE 3,cytopathic effect,150 µg/mL
CC=NC(=N)c1nc(-c2cccc(C)c2)n(Cc2ccccc2)n1,TYPE 3,cytopathic effect,>10 µg/mL
C=CCc1nc(C)n2c(=O)[nH]cnc12,TYPE 3,cytopathic effect,>200 µg/mL
Nc1nc2c(ncn2CCCC(O)CF)c(=O)[nH]1,TYPE 3,cytopathic effect,>400 µg/mL
CC1=C[C@@H](n2cnc3c(N)ncnc32)[C@H](O)[C@@H]1O,TYPE 3,cytopathic effect,20 µg/mL
CC1(C)[C@@H](CCO)C[C@H]1n1nnc2c(N)ncnc21,TYPE 3,cytopathic effect,>100 µg/mL
Nc1[nH]c(=O)ncc1F,C243 (TYPE 3),cytopathic effect,>5000 µM
COCC1=C[C@@H](n2cnc3c(N)ncnc32)[C@H](O)[C@@H]1O,TYPE 3,cytopathic effect,70 µg/mL
CO[C@H](CO)[C@@H](O)CCn1ccc(N)nc1=O,TYPE 3,cytopathic effect,>400 µg/mL
COc1ncnc2c1cnn2Cc1cn(CCCCO)nn1,TYPE 3,,240 µg/mL
Nc1ccn([C@@H]2C[C@H](CO)[C@@H](O)[C@H]2O)c(=O)n1,TYPE 3,cytopathic effect,6 µg/mL
Nc1ncnc2c1ncn2C(CF)CCCO,TYPE 3,cytopathic effect,>400 µg/mL
CC=NC(=N)c1nc(-c2cccc(OC)c2)n(C/C=C/c2ccccc2)n1,TYPE 3,cytopathic effect,>40 µg/mL
CC(=O)Nc1nc2c(CC(O)CO)nc(C)n2c(=O)[nH]1,TYPE 3,cytopathic effect,>200 µg/mL
CO[C@H](CO)[C@@H](O)CCn1cnc2c(=O)[nH]c(N)nc21,TYPE 3,cytopathic effect,>400 µg/mL
Nc1ncnc2c1ncn2[C@@H]1O[C@H](/C=N/O)C[C@H]1O,TYPE 3,cytopathic effect,>400 µg/mL
Nc1ncnc2c1ncn2CC[C@H](O)CCO,TYPE 3,cytopathic effect,>400 µg/mL
C=C(N=CC)c1nc(-c2ccccc2)n([C@@H]2O[C@H](CO)[C@@H](O)[C@H]2O)n1,TYPE 3,cytopathic effect,>100 µg/mL
Nc1nc2c(ncn2CC[C@H](O)CCO)c(=O)[nH]1,TYPE 3,cytopathic effect,>400 µg/mL
S=c1[nH]nc(-c2cn(-c3ccccc3)nc2-c2ccccc2)o1,TYPE 3,cytopathic effect,>16 µg/mL
Cc1nc(Cc2ccccc2)c2[nH]c(=S)[nH]c(=O)n12,TYPE 3,cytopathic effect,>100 µg/mL
Nc1ncnc2c1ncn2[C@@H]1O[C@H](C=O)C[C@H]1O,TYPE 3,cytopathic effect,>400 µg/mL
CC(=O)OCCOCN1C=CC(=O)N(COCCOC(C)=O)S1(=O)=O,TYPE 3,,>400 µg/mL

Repeating the final 4 entries:

structure | strain | read by | value
S=c1[nH]nc(-c2cn(-c3ccccc3)nc2-c2ccccc2)o1 | TYPE 3 | cytopathic effect | >16 µg/mL
Cc1nc(Cc2ccccc2)c2[nH]c(=S)[nH]c(=O)n12 | TYPE 3 | cytopathic effect | >100 µg/mL
Nc1ncnc2c1ncn2[C@@H]1O[C@H](C=O)C[C@H]1O | TYPE 3 | cytopathic effect | >400 µg/mL
CC(=O)OCCOCN1C=CC(=O)N(COCCOC(C)=O)S1(=O)=O | TYPE 3 |  | >400 µg/mL

ECn is the concentration giving n% inhibition of infection, replication or growth. Lines come from different laboratories, so protocols vary.